Results of unrelated studies side by side (data: NIAID ChemDB).

Shared fields: tests in culture

Neighbouring rows are from separate reports.

smiles	measure	dose	organism	strain or isolate	read by	cells	value
CC(=O)Oc1cccc2c1C(=O)c1c(cnn1C)C2=O	inhibition	50 µM	Cryptosporidium parvum	-	-	-	100%
Oc1ccccc1C=Nc1ccccc1O	MIC99	-	Cryptococcus gattii	ATCC 32608	-	-	5.7 µg/mL
COc1cc(C)cc2c1C(=O)c1cnn(C)c1C2=O	inhibition	50 µM	Cryptosporidium parvum	-	-	-	43%
C[C@@H](c1ncncc1F)[C@](O)(Cn1cncn1)c1ccc(F)cc1F	MIC	-	Cryptococcus gattii	CBS 10865	broth dilution	-	0.008 µg/mL
Oc1cccc(C=Nc2ccccc2O)c1	MIC99	-	Cryptococcus gattii	L 27/01	-	-	16 µg/mL
C[C@@H](c1nc(-c2ccc(C#N)cc2)cs1)[C@](O)(Cn1cncn1)c1cc(F)ccc1F	MIC90	-	Cryptococcus gattii	VG IIa	broth dilution	-	0.063 µg/mL
O=C(c1ccccc1)c1oc2cc(O)cc(Cc3ccccc3)c2c1O	inhibition	50 µM	Cryptosporidium parvum	-	-	-	11%
NCCCC[C@H](NC(=O)[C@H](CCCN=C(N)N)NC(=O)[C@H](CCCN=C(N)N)NC(=O)[C@H](CCCCN)NC(=O)[C@H](CCCCN)NC(=O)[C@@H](N)CCCCN)C(=O)N[C@@H](CCCN=C(N)N)C(=O)O	inhibition	12.5 µM	Cryptococcus neoformans	ATCC 32264	-	-	0%
Oc1ccccc1N=Cc1ccc(F)cc1	MIC99	-	Cryptococcus gattii	1913 ER	-	-	8 µg/mL
CO[C@H]1/C=C/O[C@@]2(C)Oc3c(C)c(O)c4c(O)c(c5c(c4c3C2=O)NC2(CCN(CC(C)C)CC2)N=5)=NC(=O)/C(C)=C\C=C\[C@H](C)[C@H](O)[C@@H](C)[C@@H](O)[C@@H](C)[C@H](OC(C)=O)[C@@H]1C	inhibition	0.5 µg/mL	Cryptosporidium parvum	-	-	A549	6.1%
CC1(C)O[C@H]2[C@H](O)[C@@H](N=[N+]=[N-])C=C(c3ccc(C=O)cc3)[C@H]2O1	inhibition	62.5 µg/mL	Cryptococcus neoformans	ATCC 32264	broth dilution / turbidity	-	6.76%
CCOC(=O)c1c(C)nc(NCCCCNc2ccnc3cc(Cl)ccc23)nc1-c1ccccc1[N+](=O)[O-]	MIC99	-	Cryptococcus gattii	547/OTTI-97-PI-10	-	-	16 µg/mL
Cn1ncc2c1C(=O)c1c(O)c3c(c(O)c1C2=O)CCCC3	inhibition	50 µM	Cryptosporidium parvum	-	-	-	<10%
COc1ccc(/C=C2\Oc3cc(O)ccc3C2=O)cc1OC	inhibition	25 µM	Cryptosporidium parvum	-	-	-	93%
NC[C@@H]1O[C@H](O[C@H]2[C@@H](O)[C@H](O[C@@H]3[C@@H](O)[C@H](N)C[C@H](N)[C@H]3O[C@H]3O[C@H](CO)[C@@H](O)[C@H](O)[C@H]3N)O[C@@H]2CO)[C@H](N)[C@@H](O)[C@@H]1O	inhibition	50 µM	Cryptosporidium parvum	-	-	-	19%
COc1cc(O)c2c(O)c(C(=O)c3ccccc3)oc2c1	inhibition	10 µM	Cryptosporidium parvum	-	-	-	36%
Cc1nc(NCCCCNc2ccnc3cc(Cl)ccc23)nc(-c2ccccc2)c1C(=O)OC(C)C	MIC99	-	Cryptococcus gattii	ATCC 24065	-	-	8 µg/mL
O=C1c2cccc(O)c2C(=O)c2cn[nH]c21	inhibition	100 µM	Cryptosporidium parvum	-	-	-	100%
Oc1ccccc1N=Cc1cccc(O)c1O	MIC99	-	Cryptococcus gattii	29/10893	-	-	4 µg/mL
COc1c2c(c(O)c3ccccc13)C(=O)c1cnn(C)c1C2=O	EC50	-	Cryptosporidium parvum	-	-	-	<10 µM
O=C1COc2cc(O)ccc21	inhibition	50 µM	Cryptosporidium parvum	-	-	-	4%
NC[C@@H]1O[C@H](O[C@H]2[C@@H](O)[C@H](O[C@@H]3[C@@H](O)[C@H](N)C[C@H](N)[C@H]3O[C@H]3O[C@H](CO)[C@@H](O)[C@H](O)[C@H]3N)O[C@@H]2CO)[C@H](N)[C@@H](O)[C@@H]1O	inhibition	250 µg/mL	Cryptosporidium parvum	-	cell count	MDBK	68%
O=C1/C(=C/c2ccc(O)cc2)Oc2cc(O)ccc21	inhibition	25 µM	Cryptosporidium parvum	-	-	-	31%
CN[C@H]1CC[C@@H](c2ccc(Cl)c(Cl)c2)c2ccccc21	MFC	-	Cryptococcus neoformans	99BC1-40	broth dilution	-	8 µg/mL
CC[C@@H](C(=O)[C@@H](C)[C@@H](O)[C@H](C)CCc1ccc(C)c(O)c1C(=O)O)[C@H]1O[C@](CC)([C@H]2CC[C@](O)(CC)[C@H](C)O2)C[C@@H]1C	inhibition	0.5 µg/mL	Cryptosporidium parvum	-	-	A549	28%
CC[C@@H](C(=O)[C@@H](C)[C@@H](O)[C@H](C)CCc1ccc(C)c(O)c1C(=O)O)[C@H]1O[C@](CC)([C@H]2CC[C@](O)(CC)[C@H](C)O2)C[C@@H]1C	inhibition	0.1 µg/mL	Cryptosporidium parvum	IOWA	luminescence	MDCK	17.2%

An empty or dashed field is not shown. Percent inhibition refers to the dose given; in toxicity tests it is the harm to the cells. ECn: concentration that inhibits the pathogen or its effect by n%. MIC50, MIC90 and the like: level of inhibition, or share of isolates inhibited.